Pooled drug test results. Numbers come from NIAID ChemDB, via PubChem.

Common to all: tests in culture; agent: HIV-1; cell line: MT-4; measure: EC50

Conditions beyond the fields shown may differ between rows. ECn is the concentration giving n% inhibition of infection, replication or growth.

{"structure": "C#CCN1C(=O)N(Cc2ccccc2)S(=O)(=O)c2cscc21", "strain or isolate": "IIIB", "method": "syncytia", "value": "0.2 µM"}
{"structure": "O=C([O-])c1c[nH]c2ccc(Cc3ccccc3)cc2c1=O.O=C([O-])c1c[nH]c2ccc(Cc3ccccc3)cc2c1=O.[Mg+2]", "strain or isolate": "IIIB", "method": "MTT", "value": ">17 µM"}
{"structure": "CN(C)C(=O)Oc1nsnc1-c1ccc(Cl)c(Cl)c1", "strain or isolate": "IIIB-R (RT-Y181C)", "changes": "RT-Y181C", "method": "cytopathic effect / MTT", "value": ">315 µM"}
{"structure": "Cn1cc(C(=O)O)c(=O)c2cc(Br)c(Oc3ccnc(Nc4ccc(C#N)cc4)n3)cc21", "strain or isolate": "IIIB", "changes": "K103N Y181C NNRTI-resistant", "method": "MTT", "value": ">8.78 µM"}
{"structure": "COc1ccc2nc3cc(Cl)ccc3c(NCCO)c2c1", "method": "MTT", "value": ">1.8 µM"}
{"structure": "Cc1ccnc2c1NC(=O)c1cccnc1N2C1CC1", "strain or isolate": "NL4-3", "value": "0.06 µM"}
{"structure": "Cc1cn([C@H]2C[C@H](N=[N+]=[N-])[C@@H](CO)O2)c(=O)[nH]c1=O", "strain or isolate": "IIIB", "method": "cytopathic effect / MTT", "value": "0.0042 µg/mL"}
{"structure": "COc1ccc2nc3cc(Cl)ccc3c(NCC[C@@H]3CCCN4CCCC[C@H]34)c2c1", "method": "MTT", "value": ">0.7 µM"}
{"structure": "Cc1ccnc2c1NC(=O)c1cccnc1N2C1CC1", "strain or isolate": "IIIB", "method": "cytopathic effect / MTT", "value": "0.053 µM"}
{"structure": "CN1C(=O)N(Cc2ccccc2)S(=O)(=O)c2cscc21", "strain or isolate": "RF", "method": "syncytia", "value": "32.1 µM"}
{"structure": "Cc1cn([C@H]2C[C@H](N=[N+]=[N-])[C@@H](CO)O2)c(=O)[nH]c1=O", "changes": "F227L V106A", "method": "MTT", "value": "0.036 µM"}
{"structure": "CCOCn1c(Cc2ccccc2)c(C(C)C)c(=O)[nH]c1=O", "strain or isolate": "IIIB", "changes": "RT-Y181C", "method": "cytopathic effect / MTT", "value": "44 µM"}
{"structure": "CC(C)c1nc(C(=O)NCc2ccc(F)cc2)c(O)c(=O)n1C", "strain or isolate": "IIIB", "method": "MTT", "value": "0.063 µM"}
{"structure": "COC(=O)c1cn(C)c2cc(Oc3ccnc(Nc4ccc(C#N)cc4)n3)c(Br)cc2c1=O", "strain or isolate": "IIIB", "method": "MTT", "value": "0.32 µM"}
{"structure": "C1CNCCNCC(CCOCCOCCC2CNCCNCCCNCCNC2)CNCCNC1", "strain or isolate": "IIIB", "method": "cytopathic effect / MTT", "conditions": "6 d", "value": "9.25 µM"}
{"structure": "O=C(O)c1c[nH]c2ccc(Cc3ccccc3)cc2c1=O", "strain or isolate": "IIIB", "method": "MTT", "value": ">19 µM"}
{"structure": "CC(C)CN(C[C@@H](O)[C@H](Cc1ccccc1)NC(=O)[C@H](CC(N)=O)NC(=O)c1ccc2ccccc2n1)C(=O)NC(C)(C)C", "strain or isolate": "NL4-3", "changes": "PR-L10R M46I L63P V82T I84V", "method": "p24", "value": "<1.5 µM"}
{"structure": "CN(C)C(=O)Oc1nsnc1-c1cccc(Cl)c1Cl", "strain or isolate": "IIIB", "method": "cytopathic effect / MTT", "value": "0.94 µM"}
{"structure": "O=C1c2cccn2-c2ccc(Cl)cc2S(=O)(=O)N1c1ccc(Cl)cc1", "strain or isolate": "IIIB", "method": "cytopathic effect / MTT", "value": ">30 µM"}
{"structure": "Cc1cc(C#N)cc(C)c1Oc1nc(NC2CCN(Cc3cccc(C(N)=O)c3)CC2)nc2sccc12", "strain or isolate": "IIIB", "changes": "NNRTI-resistant (RT Y181C)", "method": "MTT", "value": "0.00919 µM"}
{"structure": "CC(C)(C)NC(=O)[C@@H]1CN(C(C)(C)c2cccnc2)CCN1C[C@@H](O)C[C@@H](Cc1ccccc1)C(=O)N[C@H]1c2ccccc2C[C@H]1O", "strain or isolate": "NL4-3", "value": "<0.05 µM"}
{"structure": "Cc1cc(C#N)cc(C)c1Oc1nc(Nc2ccc(C#N)cc2)nc(N)c1Br", "strain or isolate": "IIIB", "changes": "NNRTI-resistant (RT L100I)", "method": "MTT", "value": "0.00538 µM"}
{"structure": "Cc1cn([C@@H]2CC[C@H](CO)[Se]2)c(=O)[nH]c1=O", "strain or isolate": "IIIB", "method": "MTT", "value": ">100 µM"}
{"structure": "CCCCn1cc(C(=O)O)c(=O)c2cc(I)c(Oc3ccnc(Nc4ccc(C#N)cc4)n3)cc21", "strain or isolate": "IIIB", "changes": "K103N Y181C NNRTI-resistant", "method": "MTT", "value": "0.98 µM"}
{"structure": "CN(C)C(=O)Oc1nsnc1-c1ccc(Cl)cc1Cl", "strain or isolate": "IIIB", "method": "cytopathic effect / MTT", "value": "8.3 µM"}
{"structure": "C1CNCCNCCCN(CCCN2CCCNCCNCCCNCC2)CCNC1", "strain or isolate": "A012A", "method": "p24 / ELISA", "value": "<373 µM"}
{"structure": "Cc1cc(C)cc(S(=O)(=O)c2c(C(N)=O)[nH]c3ccc(Cl)cc23)c1", "strain or isolate": "IIIB", "method": "MTT", "value": "0.006 µM"}
{"structure": "C=CCN1C(=O)c2cccn2-c2ccc(Cl)cc2S1(=O)=O", "strain or isolate": "IIIB", "method": "cytopathic effect / MTT", "value": "22 µM"}
{"structure": "Cc1cc2c(C(C)C)c(O)c(O)c(C=O)c2c(O)c1-c1c(C)cc2c(C(C)C)c(O)c(O)c(C=O)c2c1O", "strain or isolate": "IIIB", "method": "p24 / ELISA", "value": "1 µg/mL"}
{"structure": "Clc1nc(Cl)c2[nH]cnc2n1", "strain or isolate": "IIIB", "method": "cytopathic effect / MTT", "value": "3.76 µM"}
{"structure": "CCN(C)C(=O)Oc1nsnc1-c1c(Cl)cccc1Cl", "strain or isolate": "IIIB-R (RT-Y181C)", "changes": "RT-Y181C", "method": "cytopathic effect / MTT", "value": "5.6 µM"}
{"structure": "C1CNCCNCCCNCCNC1", "strain or isolate": "IIIB", "method": "cytopathic effect / MTT", "conditions": "4 d", "value": "420 µM"}
{"structure": "COc1ccc2nc3cc(Cl)ccc3c(Nc3cccnc3)c2c1", "method": "MTT", "value": ">9 µM"}
{"structure": "O=C(Oc1nsnc1-c1c(Cl)cccc1Cl)N1CCCCC1", "strain or isolate": "IIIB", "method": "cytopathic effect / MTT", "value": "0.96 µM"}
{"structure": "Cc1cn([C@H]2C[C@H](N=[N+]=[N-])[C@@H](CO)O2)c(=O)[nH]c1=O", "strain or isolate": "NL4-3", "method": "p24 / ELISA", "value": "0.101 µM"}
{"structure": "CN(C)C(=O)Oc1nsnc1-c1c(Cl)cccc1Cl", "strain or isolate": "IIIB-R (RT-Y181C)", "changes": "RT-Y181C", "method": "cytopathic effect / MTT", "value": ">190 µM"}
{"structure": "CC(C)(C)NC(=O)[C@@H]1C[C@@H]2CCCC[C@@H]2CN1C[C@@H](O)[C@H](Cc1ccccc1)NC(=O)[C@H](CC(N)=O)NC(=O)c1ccc2ccccc2n1", "strain or isolate": "NL4-3", "changes": "PR-L10R L63P V82T I84V", "method": "p24", "value": "<0.1 µM"}
{"structure": "c1cnc2c(c1)cc(CN1CCNCCNCCNCC1)c1cccnc12", "strain or isolate": "IIIB", "method": "cytopathic effect / MTT", "conditions": "6 d", "value": ">17.6 µM"}
{"structure": "O=c1[nH]cnc2c1ncn2[C@H]1CC[C@@H](CO)O1", "strain or isolate": "IIIB", "method": "MTT", "value": "12 µM"}
{"structure": "CCCN(C)C(=O)Oc1nsnc1-c1c(Cl)cccc1Cl", "strain or isolate": "IIIB", "method": "cytopathic effect / MTT", "value": "0.013 µM"}
{"structure": "CCn1cc(C(=O)O)c(=O)c2cc(I)c(Oc3ccnc(Nc4ccc(C#N)cc4)n3)cc21", "strain or isolate": "IIIB", "method": "MTT", "value": "0.017 µM"}
{"structure": "CC(C)=CCN1C(=O)Nc2ccc(Cl)cc2S1(=O)=O", "strain or isolate": "IIIB", "method": "cytopathic effect / MTT", "value": "9.5 µM"}
{"structure": "COc1ccc2nc3cc(Cl)ccc3c(NCCCCCO)c2c1", "method": "MTT", "value": ">2 µM"}
{"structure": "O=c1[nH]cnc2c1ncn2[C@H]1CC[C@@H](CO)O1", "strain or isolate": "IIIB", "method": "cytopathic effect / MTT", "value": "19.32 µM"}
{"structure": "CCN(CC)CCCC(C)Nc1c2ccc(Cl)cc2nc2ccc(OC)cc12", "method": "MTT", "value": ">1.8 µM"}
{"structure": "Nc1ccn([C@@H]2CC[C@H](CO)[Se]2)c(=O)n1", "strain or isolate": "IIIB", "method": "MTT", "value": ">100 µM"}
{"structure": "Cc1cn([C@H]2C[C@H](N=[N+]=[N-])[C@@H](CO)O2)c(=O)[nH]c1=O", "strain or isolate": "IIIB", "method": "MTT", "value": "0.0056 µM"}
{"structure": "O=C1N(Cc2ccccc2)c2cscc2S(=O)(=O)N1Cc1ccccc1", "strain or isolate": "IIIB", "method": "syncytia", "value": "2.6 µM"}
{"structure": "CC(C)=CCN1C(C)C(=O)N(C(C)C)c2ccc(Cl)cc2S1(=O)=O", "strain or isolate": "IIIB", "method": "cytopathic effect / MTT", "value": ">56 µM"}
{"structure": "Cc1cn([C@@H]2O[C@H](CO[Si](C)(C)C(C)(C)C)[C@]3(C=CS(=O)(=O)O3)[C@H]2O[Si](C)(C)C(C)(C)C)c(=O)n(C)c1=O", "value": "0.53 µM"}
{"structure": "c1cc(CN2CCCNCCNCCCNCC2)ccc1CN1CCCNCCNCCCNCC1", "strain or isolate": "IIIB Recombinant", "value": "0.03 µM"}
{"structure": "Cc1cn([C@H]2CC[C@H](CO)[Se]2)c(=O)[nH]c1=O", "strain or isolate": "IIIB", "method": "MTT", "value": ">100 µM"}
{"structure": "COc1ccc2nc3cc(Cl)ccc3c(NCC(C)N(C)C)c2c1", "method": "MTT", "value": ">5.7 µM"}
{"structure": "Cc1cn([C@H]2C[C@H](N=[N+]=[N-])[C@@H](CO)O2)c(=O)[nH]c1=O", "strain or isolate": "IIIB", "method": "p24", "value": "0.03 µM"}
{"structure": "CC(C)(C)NC(=O)[C@@H]1CN(Cc2cc3cnccc3o2)CCN1C[C@@H](O)C[C@@H](Cc1ccccc1)C(=O)N[C@H]1c2ccccc2C[C@H]1O", "strain or isolate": "NL4-3", "value": "<0.015 µM"}
{"structure": "Cc1cn([C@H]2C[C@H](N=[N+]=[N-])[C@@H](CO)O2)c(=O)[nH]c1=O", "strain or isolate": "IIIB Recombinant", "value": "0.005 µM"}
{"structure": "CN(C)C(=O)Oc1nsnc1-c1ccc(Cl)cc1", "strain or isolate": "IIIB", "method": "cytopathic effect / MTT", "value": ">353 µM"}
{"structure": "COc1ccc2nc3cc(Cl)ccc3c(NCCN3CCOCC3)c2c1", "method": "MTT", "value": ">1.8 µM"}
{"structure": "Cc1cc(C#N)cc(C)c1Oc1nc(NC2CCC(NCc3ccc(Br)cc3)CC2)nc2ccsc12", "strain or isolate": "RES056", "method": "MTT", "value": ">3.45 µM"}

6 of the rows above, restated:

O=C1N(Cc2ccccc2)c2cscc2S(=O)(=O)N1Cc1ccccc1 ; strain or isolate: IIIB ; method: syncytia ; value: 2.6 µM
O=c1[nH]cnc2c1ncn2[C@H]1CC[C@@H](CO)O1 ; strain or isolate: IIIB ; method: MTT ; value: 12 µM
Cc1cn([C@H]2C[C@H](N=[N+]=[N-])[C@@H](CO)O2)c(=O)[nH]c1=O ; strain or isolate: IIIB ; method: p24 ; value: 0.03 µM
C=CCN1C(=O)c2cccn2-c2ccc(Cl)cc2S1(=O)=O ; strain or isolate: IIIB ; method: cytopathic effect / MTT ; value: 22 µM
Cc1cn([C@H]2C[C@H](N=[N+]=[N-])[C@@H](CO)O2)c(=O)[nH]c1=O ; strain or isolate: NL4-3 ; method: p24 / ELISA ; value: 0.101 µM
C1CNCCNCCCN(CCCN2CCCNCCNCCCNCC2)CCNC1 ; strain or isolate: A012A ; method: p24 / ELISA ; value: <373 µM